Consider eight substances from article PMC4776139, “Extended string-like binding of the phosphorylated HP1α N-terminal tail to the lysine 9-methylated histone H3 tail” (Scientific Reports, 2016).

In this data set the test system is H3K9me peptide (22-mer, amino acids 1–21 of histone H3 with a C-terminal tyrosine). The data set can be described thus: Isothermal titration calorimetry (ITC) of HP1α chromodomain constructs with H3K9me peptide. Conditions: 20 °C, pH 6.80, one-site binding model. The procedure:
Protein solution (40 μM) was loaded into a VP-ITC isothermal titration calorimeter (Microcal, INC.) cell (active cell volume 1.4 ml). The solution was titrated against 400 μM ligand solution via a 250 μl titration syringe. Experiments were carried out at 20 °C. The ligand solution was prepared in the same buffer as the protein (20 mM KPB (pH 6.80), 10 mM NaCl). The heat of dilution generated by the ligand was subtracted, and the binding isotherms were fitted to a one-site binding model by using Origin 7 Software (Microcal, INC.). From the values of Kd and ΔH, the thermodynamic parameters, ΔG and ΔS were calculated according to the basic thermodynamic equations;
For “NCD^Δ1–4: N-terminal deletion mutant, amino acids 5–80 of HP1α”, the “N (stoichiometry)” value came out at 1.04 sites.

For “NCD^Δ1–9: N-terminal deletion mutant, amino acid 10–80 of HP1α”, the “N (stoichiometry)” value came out at 1.01 sites.

As for “phos-NCD^Δ1–4: NCD^Δ1–4 (amino acids 5–80) with phosphorylated serine residues”, the “N (stoichiometry)” value was found to be 1.03 sites.

On to “NCD^Δ1–14: acidic segment plus CD, amino acids 15–80 of HP1α”, for which the “N (stoichiometry)” value worked out at 1.00 sites.

With “phos-NCD^Δ1–9: phosphorylated NCD^Δ1–9 form, amino acids 10–80 of HP1α”, the “N (stoichiometry)” value was 1.04 sites.

With “phos-NCD: chromodomain with phosphorylated N-terminal tail, amino acids 1–80 of HP1α, co-expressed with casein kinase II”, the “N (stoichiometry)” value is on record as 1.03 sites.

“NCD^Δ1–19: CD domain alone, amino acids 20–80 of HP1α”: the “N (stoichiometry)” value is listed as 1.08 sites.

For “unmod-NCD: chromodomain with un-phosphorylated N-terminal tail, amino acids 1–80 of HP1α”, the “N (stoichiometry)” value was determined as 1.09 sites.
